Data as given in PubChem BioAssay AID1224833 (University of Georgia, 2016)

Assay: 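Human genes whose knock-down alters rotavirus replication in monkey cells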 (primary screen)
Cells: monkey MA104 kidney cells
Reagents: siRNA pool against human genes, 50 nM
Timing: 48 h knock-down before infection; read 24 h after infection
Conditions: infection with rotavirus strain RV3 two days after transfection; infectious dose for this stage not given
Measurement: 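z-score of rotavirus antigen signal per well, from a fluorescent immunoassay, relative to non-targeting control wells on the same plate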
Reading the numbers: z-score vs non-targeting control: higher = more rotavirus replication than with non-targeting control
Hit rule: In these data the active calls have z-score vs non-targeting control at about -1 or lower, or at about 1 or higher
Meaning of the calls: active = z-score beyond 1 either way; inactive = z-score within 1 of zero
The deposit covers about 12,000 reagents; shown is a part drawn at random. About 5,600 of all reagents (46%) were called active. 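Active calls cover z-scores past 1 in both directions, so they include lowered as well as raised rotavirus replication.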

The first 8 records, to show the layout:
Gene	z-score vs non-targeting control	outcome
ELK3	-1.74	active
FAM219A	-1.1	active
AADACL2	-1.71	active
GPR26	1.02	active
SLC30A3	1.06	active
ZNF346	1.68	active
KL	-1.45	active
WDR76	1.19	active

Main list, from the start:
Gene	z-score vs non-targeting control	outcome
ELK3	-1.74	active
FAM219A	-1.1	active
AADACL2	-1.71	active
GPR26	1.02	active
SLC30A3	1.06	active
ZNF346	1.68	active
KL	-1.45	active
WDR76	1.19	active
ASXL1	0.705	inactive
ASPG	-1.11	active
ATG4B	-0.596	inactive
ZCCHC17	1.93	active
SP1	-0.51	inactive
SFN	-0.471	inactive
IFT122	-1.04	active
EIF3F	-1.48	active
RAB11FIP2	-0.535	inactive
ELMO3	-0.437	inactive
PREB	-0.7	inactive
C5orf24	-0.846	inactive
VTI1A	-0.622	inactive
OSCP1	-0.906	inactive
LPA	-0.543	inactive
STAB2	0.267	inactive
GLI4	-1.06	active
PM20D2	-0.685	inactive
MREG	-1.43	active
LPIN2	-0.667	inactive
CCL11	-0.938	inactive
EBF3	-0.852	inactive
FMO5	-1.29	active
LIMS1	-1.56	active
VSIG1	1.83	active
RAB5C	1	active
OXR1	1.86	active
SERPIND1	0.578	inactive
PARP15	0.457	inactive
IFT43	0.671	inactive
BRIP1	2.14	active
EIF3A	0.659	inactive
SEPTIN10	1.1	active
TRH	-1.67	active
MPZL2	0.984	inactive
DST	-0.39	inactive
RAD51	-2.5	active
CGAS	-0.167	inactive
ZFY	-0.521	inactive
PRX	-0.313	inactive
PLCG2	-3.34	active
KLC2	0.213	inactive
TP53AIP1	1.27	active
ACSF3	-2.81	active
PEA15	-1.06	active
ZNF407	-0.59	inactive
SLC10A1	-1.48	active
H2AC4	-1.35	active
IL2RB	-1.24	active
ELMOD2	-1.76	active
DDX3Y	-2.15	active
HAUS8	0.513	inactive
CCDC158	-1.17	active
DENND2D	1.17	active
NHS	1.04	active
OR8B8	-0.36	inactive
C11orf71	3.29	active
ELP3	-1.3	active
ROPN1B	-1.34	active
TECPR2	-1.08	active
MAGIX	-1.27	active
PLS3	0.837	inactive
ZFR2	-2.1	active
ABCB1	-0.82	inactive
SSB	-0.337	inactive
C11orf68	0.562	inactive
TMOD3	-0.239	inactive
MFN2	-1.92	active
CHST1	-0.863	inactive
BCAT2	-0.903	inactive
NECTIN4	-2.31	active
TTF2	-1.26	active
SF3A1	0.691	inactive
VPS37B	1.19	active
FAM149B1	-0.92	inactive
GSX1	0.0904	inactive
SMIM8	-0.52	inactive
C17orf78	0.524	inactive
IRF3	-1.28	active
SVOPL	4.91	active
SPAG1	-0.53	inactive
FAM111A	1.98	active
TAF5L	1.08	active
SPACA1	0.161	inactive
NDUFC1	-1.67	active
PDXDC1	-0.903	inactive
HEBP1	-0.575	inactive
TSGA10	0.387	inactive
DAP	-0.86	inactive
ESD	1.34	active
COQ4	-1.27	active
RHBDD3	1.03	active
NOPCHAP1	-0.909	inactive
ZNF257	-0.785	inactive
SLC6A14	-0.648	inactive
PTCHD3	-1.55	active
PRSS2	0.777	inactive
PEX6	-1.13	active
NOM1	1.28	active
ZSWIM9	1.11	active
IFNGR2	-0.667	inactive
SNAP23	0.475	inactive
ZNF23	0.794	inactive
ANKRD28	-1.32	active
EML3	2.36	active
HOXC9	-2.36	active
PLLP	-0.664	inactive
YWHAZ	-0.931	inactive
CYP19A1	-1.85	active
CD34	-1.14	active
CEP104	-0.073	inactive
ATF7IP2	-0.222	inactive
MRPL9	-0.735	inactive
HOATZ	-0.987	inactive
AATF	-1.23	active
SLC25A16	-1.17	active
CPTP	0.579	inactive
OR5D13	0.0029	inactive
CAPG	-1.66	active
HEPH	0.0585	inactive
ARL5B	0.232	inactive
NEURL4	1.09	active
LINC02870	0.34	inactive
SEMA4D	-2.23	active
TGM1	-1.46	active
LY6G6C	-1.22	active
FCGR3A	-3.14	active
MAD1L1	1.3	active
OLFML2B	0.679	inactive
DEFB123	0.202	inactive
DCN	0.0256	inactive
INTS9	-1.12	active
